Key:
[1] = molecular target: AMC009 SOSIP.v4.2 trimer (HIV-1 (subtype B)); assay: native gel or EMSA
[2] = molecular target: AMC009 SOSIP.v4.2 trimer (HIV-1 (subtype B)); assay: cryo-EM structure

AMC009 SOSIP.v4.2 trimer (complex)
stoichiometry N [1]: 3 | stoichiometry N [2]: 3
